Measured values from several laboratories, pooled; numbers as filed in NIAID ChemDB.

Shared fields: growth or infection tests; organism: Mycobacterium tuberculosis

A number after MIC or MFC names an inhibition level or a share of isolates. ECn: concentration that inhibits the pathogen or its effect by n%. a–b is a range or a potency band. Rows are shuffled and stem from different studies. Blank or dashed fields: not listed here. Inhibition is in % at the dose shown (toxicity tests: loss of growth or viability). MIC bound: limit read from a one-dose screen.

structure	setting	tested at	mutations	cell line	read by	strain	measure	result
CCCCCCCCCN1C(=O)CC(NC(C)CCN(CC)CC)C1=O						H37Ra	MIC	≤20 µg/mL
O=S1(=O)OC(c2ccc(O)c(O)c2)(c2ccc(O)c(O)c2)c2ccccc21					BACTEC	H37Rv	MIC bound	>12.5 µg/mL
Fc1ccc(-n2ncc(C(c3ccccc3)n3ccnc3)c2-c2ccccc2)cc1						ATCC 27294	MIC90	>100 µM
C/C=C1/C(=O)O[C@]23C=C[C@@H]4C(C(=O)OC)=CO[C@H](O[C@@H]12)[C@@H]43					MTT	MDR3 clinical isolate	MIC	1.5 µg/mL
CC(C)N=c1cc2n(-c3ccc(Cl)cc3)c3ccccc3nc-2cc1Nc1ccc(Cl)cc1						Praha 1	MIC	0.53 µM
CO[C@H]1/C=C/O[C@@]2(C)Oc3c(C)c(O)c4c(O)c(c5c(c4c3C2=O)NC2(CCN(CC(C)C)CC2)N=5)=NC(=O)/C(C)=C\C=C\[C@H](C)[C@H](O)[C@@H](C)[C@@H](O)[C@@H](C)[C@H](OC(C)=O)[C@@H]1C						MDR-22 (MDR)	MIC	1.6 µg/mL
O=c1oc2ccccc2cc1-c1cs/c(=N\N=C\c2ccccc2[N+](=O)[O-])n1C1CCCCC1		12.5 µg/mL				H37Rv	inhibition	12%
C[C@@H]1CN(c2c(F)c(N)c3c(=O)c(C(=O)O)cn(C4CC4)c3c2F)C[C@H](C)N1						MDR-3948 (MDR)	MIC	0.2 µg/mL
CCCCn1c(-c2cc3ccccc3oc2=O)cs/c1=N\N=C\c1cc(Br)ccc1O		12.5 µg/mL				H37Rv	inhibition	3%
CC(C(=O)NN)C1(O)CCCCC1					BACTEC	H37Rv	MIC	≥12.5 µg/mL
CC(=O)Oc1ccccc1C(=O)Nc1ncc([N+](=O)[O-])s1					visual reading	LAM spoligotype 42	MIC	18.7 µg/mL
CC(=O)O[C@H]1C(=O)[C@]2(C)[C@@H](OC(C)=O)C[C@H]3OC[C@@]3(OC(C)=O)[C@H]2[C@H](OC(=O)c2ccccc2)[C@]2(O)C[C@H](OC(=O)[C@H](OC(C)=O)[C@@H](NC(=O)c3ccccc3)c3ccccc3)C(C)=C1C2(C)C					BACTEC	H37Rv	MIC bound	≤12.5 µg/mL
CO[C@H]1/C=C/O[C@@]2(C)Oc3c(C)c(O)c4c(O)c(c(/C=N/N5CCN(C)CC5)c(O)c4c3C2=O)NC(=O)/C(C)=C\C=C\[C@H](C)[C@H](O)[C@@H](C)[C@@H](O)[C@@H](C)[C@H](OC(C)=O)[C@@H]1C						29197	MIC	≥2 µg/mL
C/C=C/c1ccc2oc(-c3ccc(O)c(OC)c3)c(C)c2c1			Isoniazid-resistant		resazurin / absorbance	Clinical isolate 17	MIC	3.9 µg/mL
CCOc1cc(/C=N/N=c2\scc(-c3cc4ccccc4oc3=O)n2CC)ccc1O		12.5 µg/mL				H37Rv	inhibition	97%
COc1ccc(C2C(C(=O)Nc3ccc(Cl)cc3)=C(C)NC(C)=C2C(=O)Nc2ccc(Cl)cc2)c(O)c1						H37Rv	EC50	<2.5 µg/mL
COC1=C(C)C(=O)c2c(c(COC(N)=O)c3n2C[C@H]2[C@@H]3N2C)C1=O		0.5 µM			BACTEC	H37Rv	inhibition	0%
Clc1ccccc1-c1c(C(c2ccccc2)n2ccnc2)cnn1-c1ccccc1						ATCC 35820 (streptomycin-resistant)	MIC50	41.1 µM
CCn1c(SCC(=O)N=Nc2c(O)[nH]c3ccccc23)nc2ccc(Cl)cc2c1=O						H37Rv	MIC	>12.5 µg/mL
O=C(O)/C=C/c1cnccn1					BACTEC	H37Rv	MIC bound	>12.5 µg/mL
O=C(O)c1cn(C2CC2F)c2c(Cl)c(N3CC4CCCNC4C3)c(F)cc2c1=O						44 (RFP-resistant)	MIC	0.025 µg/mL
O=C(CSc1nc2ccccc2c(=O)n1-c1ccccc1)N=Nc1c(O)[nH]c2ccccc12						H37Rv	MIC	>12.5 µg/mL
COc1ccccc1NC(=S)S					BACTEC	H37Rv	MIC	≥12.5 µg/mL
Clc1ccc(-c2c(C(c3ccccc3)n3ccnc3)cnn2-c2ccc(Cl)cc2)cc1						ATCC 35822 (isoniazid-resistant)	MIC90	≥100 µM
O=c1oc2ccc(Br)cc2cc1-c1cs/c(=N/N=C/c2ccc(Cl)cc2)n1C1CCCCC1		12.5 µg/mL				H37Rv	inhibition	40%
C[C@H]1C[C@H](N)CN1c1cc2c(cc1F)c(=O)c(C(=O)O)cn2-c1ccc(F)cc1F						Drug-resistant	MBC90	8 µg/mL
CC1=C(C(=O)Nc2ccc([N+](=O)[O-])cc2)C(c2ccc(N(C)C)cc2)C(C(=O)Nc2ccc([N+](=O)[O-])cc2)=C(C)N1		2.5 µg/mL				H37Rv	inhibition	97%
NC1CCN(c2c(F)cc3c(=O)c(C(=O)O)cn(C4CC4)c3c2Cl)C1						MDR	MBC90	4 µg/mL
O=C(Nc1ccc(NC(=O)Nc2cc(C(=O)Nc3ccc(C4=NCCN4)cc3)ccc2C(=O)Nc2ccc(C3=NCCN3)cc2)cc1)Nc1cc(C(=O)Nc2ccc(C3=NCCN3)cc2)ccc1C(=O)Nc1ccc(C2=NCCN2)cc1		12.5 µg/mL			BACTEC	H37Rv	inhibition	24%
C/C=C/c1ccc2c(c1)[C@@H](C)[C@H](c1ccc(OC)cc1)O2			isoniazid rifampicin pyrazinamide resistant		resazurin / absorbance	Clinical isolate 73-A	MIC	3.9 µg/mL
CC(=O)NCCc1nc(-c2nc(C(=O)NCCCN)cs2)cs1.Cl					BACTEC	H37Rv	MIC bound	>12.8 µg/mL
C=CCn1c(-c2ccc(OC)cc2)cs/c1=N\N=C1/C(=O)Nc2ccccc21						H37Rv	MIC	12.5 µg/mL
Clc1ccccc1C(c1ccccc1)(c1ccccc1)n1ccnc1						ATCC 35837 (ethambutol-resistant)	MIC50	≥100 µM
CCCCn1c(-c2ccccc2)cs/c1=N\N=C1/C(=O)Nc2ccccc21						H37Rv	MIC	>12.5 µg/mL
CC1=C(C(=O)Nc2cccc([N+](=O)[O-])c2)C(c2ccccc2)C(C(=O)Nc2cccc([N+](=O)[O-])c2)=C(C)N1						H37Rv	EC50	<2.5 µg/mL
CO[C@H]1/C=C/O[C@@]2(C)Oc3c(C)c(O)c4c(O)c(c5c(c4c3C2=O)NC2(CCN(CC(C)C)CC2)N=5)=NC(=O)/C(C)=C\C=C\[C@H](C)[C@H](O)[C@@H](C)[C@@H](O)[C@@H](C)[C@H](OC(C)=O)[C@@H]1C						2219 (rifampin-resistant)	MBC	0.8 µg/mL
O=C(CCN1C(=O)CCC1=O)Nc1ccc(N2CCCCC2)cc1						H37Ra	MIC	≤20 µg/mL
CO[C@H]1/C=C/O[C@@]2(C)Oc3c(C)c(O)c4c(O)c(c(/C=N/N5CCN(C/C=C/c6ccccc6)CC5)c(O)c4c3C2=O)NC(=O)/C(C)=C\C=C\[C@H](C)[C@H](O)[C@@H](C)[C@@H](O)[C@@H](C)[C@H](OC(C)=O)[C@@H]1C						33 (rifampin-resistant)	MBC	0.2 µg/mL
CO[C@H]1/C=C/O[C@@]2(C)Oc3c(C)c(O)c4c(O)c(c(/C=N/N5CCN(C)CC5)c(O)c4c3C2=O)NC(=O)/C(C)=C\C=C\[C@H](C)[C@H](O)[C@@H](C)[C@@H](O)[C@@H](C)[C@H](OC(C)=O)[C@@H]1C						8666/2010	MIC	>9.7 µM
O=C1C(Cl)=C(Nc2cc(Cl)ccc2Cl)C(=O)c2ccccc21		12.5 µg/mL			BACTEC	H37Rv	inhibition	45%
CC[C@H]1OC(=O)[C@H](C)[C@@H](O[C@H]2C[C@@](C)(OC)[C@@H](O)[C@H](C)O2)[C@H](C)[C@@H](O[C@@H]2O[C@H](C)C[C@H](N(C)C)[C@H]2O)[C@](C)(O)C[C@@H](C)C(=O)[C@H](C)[C@@H](O)[C@]1(C)O						ATCC 35830	MBC	>8 µg/mL
CC1=C(C(=O)Nc2ccccc2Cl)C(c2ccc(Cl)cc2Cl)C(C(=O)Nc2ccccc2Cl)=C(C)N1		2.5 µg/mL				H37Rv	inhibition	11%
CC1CN(c2cc3c(cc2F)c(=O)c(C(=O)O)cn3-c2ccc(F)cc2F)CCN1						Drug-resistant	MIC50	1 µg/mL
CCCc1ccc2oc(-c3ccc(O)c(OC)c3)c(C)c2c1			isoniazid rifampicin pyrazinamide resistant		resazurin / absorbance	Clinical isolate 73-A	MIC	3.9 µg/mL
CN(C)CCCN1c2ccc3ccccc3c2Sc2cccc(Cl)c21				VERO		H37Rv	MIC	3.13 µg/mL
CN[C@@H]1[C@H](O[C@H]2[C@H](O[C@H]3[C@H](O)[C@@H](O)[C@H](N=C(N)N)[C@@H](O)[C@@H]3N=C(N)N)O[C@@H](C)[C@]2(O)C=O)O[C@@H](CO)[C@H](O)[C@H]1O						ATCC 35837 (ethambutol-resistant)	MIC50	0.1 µM
CC[n+]1c2ccc(C)cc2nc2c3ccccc3c(N)cc21.[Cl-]				VERO	BACTEC	H37Rv	MIC	6.25 µg/mL
CC1COc2c(N3CCN(C)CC3)c(F)cc3c(=O)c(C(=O)O)cn1c23						ATCC 27294	MIC50	0.7 µM
C[C@H]1[C@H](c2ccccc2)N[C@H](c2ccccc2)C[C@@]1(N)C#N					resazurin	H37Rv	MIC bound	>6.25 µg/mL
Cc1ccc(Cn2nnc(-c3cc([N+](=O)[O-])cc([N+](=O)[O-])c3)n2)cc1	14 d					8666/2010	MIC	0.125 µM
CC[C@H]1OC(=O)[C@H](C)[C@@H](O[C@H]2C[C@@](C)(OC)[C@@H](O)[C@H](C)O2)[C@H](C)[C@@H](O[C@@H]2O[C@H](C)C[C@H](N(C)C)[C@H]2O)[C@](C)(OC)C[C@@H](C)C(=O)[C@H](C)[C@@H](O)[C@]1(C)O						9133	MIC	>4 µg/mL
NNC(=O)c1ccncc1						PR1282	MIC	0.08 µg/mL
Cc1cc(NCCCCCCCCNc2cc(C)nc3cc(N(C)C)ccc23)c2ccc(N(C)C)cc2n1				VERO	BACTEC	H37Rv	MIC	6.25 µg/mL
CCC1CN(c2c(F)cc3c(=O)c(C(=O)O)cn([C@@H]4C[C@@H]4F)c3c2OC)CCN1						50 (RFP-resistant)	MIC	0.25 µg/mL
O=C(NNC(=O)c1ccc([N+](=O)[O-])cc1)c1ccc([N+](=O)[O-])cc1		6.25 µg/mL			resazurin	H37Rv	inhibition	6%
CN[C@@H]1[C@H](O[C@H]2[C@H](O[C@H]3[C@H](O)[C@@H](O)[C@H](N=C(N)N)[C@@H](O)[C@@H]3N=C(N)N)O[C@@H](C)[C@]2(O)C=O)O[C@@H](CO)[C@H](O)[C@H]1O						4931/83 (streptomycin-resistant)	MIC	25–50 µg/mL
C=CCCCCCCCCC(=O)NNC(=O)c1ccncc1				VERO		H37Rv	MIC	0.005 µg/mL
CCCCCCCCNC1CC(=O)N(CCCCCCCC)C1=O						H37Ra	MIC	≤20 µg/mL
Clc1ccc(-n2ncc(C(c3ccccc3)n3ccnc3)c2-c2ccccc2)c(Cl)c1						ATCC 35822 (isoniazid-resistant)	MIC50	61.2 µM
O=C1CC2(C(=O)O)CC3CC2C(O1)C3I					BACTEC	H37Rv	MIC	≥12.5 µg/mL
C=CCn1c(-c2cc3cc(Br)ccc3oc2=O)cs/c1=N\N=C\c1ccc(O)c(OCC)c1						H37Rv	EC50	<12.5 µg/mL
O=C1CCCCCCCCCCCCCCCO1						ETA-R	MIC	>12.8 µg/mL
Cc1c(N2CC3CCCNC3C2)c(F)cc2c(=O)c(C(=O)O)cn([C@@H]3C[C@@H]3F)c12						40 (RFP-susceptible)	MIC	0.006 µg/mL
CCN(CC)c1ccc(N=C2C=CC(=O)c3ncccc32)c(C)c1					BACTEC	H37Rv	MIC bound	≤12.5 µg/mL
CO[C@H]1/C=C/O[C@@]2(C)Oc3c(C)c(O)c4c(O)c(c(/C=N/N5CCN(C)CC5)c(O)c4c3C2=O)NC(=O)/C(C)=C\C=C\[C@H](C)[C@H](O)[C@@H](C)[C@@H](O)[C@@H](C)[C@H](OC(C)=O)[C@@H]1C						ATCC 35820 (streptomycin-resistant)	MIC90	1.1 µM
CO[C@H]1/C=C/O[C@@]2(C)Oc3c(C)c(O)c4c(O)c(c(/C=N/N5CCN(C6CCCC6)CC5)c(O)c4c3C2=O)NC(=O)/C(C)=C\C=C\[C@H](C)[C@H](O)[C@@H](C)[C@@H](O)[C@@H](C)[C@H](OC(C)=O)[C@@H]1C						1032	MIC	0.08 µg/mL
CC1(C)NN=C2C(=CC=C3NNC(C)(C)N32)n2cccc21.Cl.Cl					BACTEC	H37Rv	MIC bound	>12.5 µg/mL
C[C@@H]1CN(c2c(F)c(N)c3c(=O)c(C(=O)O)cn(C4CC4)c3c2F)C[C@H](C)N1						Drug-resistant	MIC50	0.06 µg/mL
CN(C)c1ccc2[nH]cc(C(=O)O)c(=O)c2c1		12.5 µg/mL			BACTEC	H37Rv	inhibition	52%
CCCCCCCCNC1(C)CC(=O)N(CCCCCCCC)C1=O						H37Ra	MIC	≤20 µg/mL

A second listing of 4 rows from above:

structure,setting,tested at,mutations,cell line,read by,strain,measure,result
CC1COc2c(N3CCN(C)CC3)c(F)cc3c(=O)c(C(=O)O)cn1c23,,,,,,ATCC 27294,MIC50,0.7 µM
Cc1ccc(Cn2nnc(-c3cc([N+](=O)[O-])cc([N+](=O)[O-])c3)n2)cc1,14 d,,,,,8666/2010,MIC,0.125 µM
CO[C@H]1/C=C/O[C@@]2(C)Oc3c(C)c(O)c4c(O)c(c(/C=N/N5CCN(C)CC5)c(O)c4c3C2=O)NC(=O)/C(C)=C\C=C\[C@H](C)[C@H](O)[C@@H](C)[C@@H](O)[C@@H](C)[C@H](OC(C)=O)[C@@H]1C,,,,,,8666/2010,MIC,>9.7 µM
COc1ccccc1NC(=S)S,,,,,BACTEC,H37Rv,MIC,≥12.5 µg/mL